Pooled drug test results. Numbers come from NIAID ChemDB, via PubChem.

Common to all: growth or infection tests; species: Cryptococcus neoformans; read-out: MIC80

Neighbouring rows are from separate reports. MIC50, MIC90 and the like: level of inhibition, or share of isolates inhibited. An empty or dashed field is not shown.

{"structure": "N#Cc1ccc(/C=C2\\SC(=O)N(CC(O)(Cn3nccn3)c3ccc(F)cc3F)C2=O)cc1", "result": "68.46 µg/mL"}
{"structure": "N=C(N)c1ccc(O)cc1", "strain": "H99", "result": ">100 µg/mL"}
{"structure": "COc1ccc2c(c1)CCN1C(NCCCCCCC(C)C)NCCC21", "strain": "NFI3102", "result": "1 µg/mL"}
{"structure": "CCN(Cc1cn(Cc2cccc(F)c2)nn1)CC(O)(Cn1cncn1)c1ccc(F)cc1F", "result": "1 µg/mL"}
{"structure": "CCCCN(Cc1cn(Cc2ccc(Cl)cc2)nn1)CC(O)(Cn1cncn1)c1ccc(F)cc1F", "result": "2 µg/mL"}
{"structure": "CN(C)CCN(C)C(=O)c1ccc(-c2ccc(-c3ccc(C(=O)N(C)CCN(C)C)cc3)o2)cc1", "strain": "H99", "result": ">110 µg/mL"}
{"structure": "CC(C)=CCCCCCNC1NCCC2c3ccccc3CCN12", "strain": "NFI3102", "result": "1 µg/mL"}
{"structure": "CCC(C)/C=C1\\SC(=O)N(CC(O)(Cn2nccn2)c2ccc(F)cc2F)C1=O", "result": "1.23 µg/mL"}
{"structure": "C[C@@H](n1ncc2ccc([N+](=O)[O-])cc21)[C@](O)(Cn1cncn1)c1ccc(F)cc1F", "strain": "ATCC 24065", "result": "0.25 µg/mL"}
{"structure": "N=C(N)c1ccc2nc(CCCc3nc4ccc(C(=N)N)cc4[nH]3)[nH]c2c1", "strain": "H99", "result": ">100 µg/mL"}
{"structure": "CCC(C)CC(C)/C=C(C)/C=C/CC(C)C(O)C(C)/C=C(C)/C=C/C(O)C(C)c1cc(O)c(C2OC(CO)CC(O)C2O)c(=O)o1", "strain": "TIMM0362", "result": "1.56 µg/mL"}
{"structure": "Cn1cccc1/C=C1\\SC(=O)N(CC(O)(Cn2nccn2)c2ccc(F)cc2F)C1=O", "result": "4.49 µg/mL"}
{"structure": "CCCCN(Cc1cn(Cc2ccccc2F)nn1)CC(O)(Cn1cncn1)c1ccc(F)cc1F", "result": "8 µg/mL"}
{"structure": "Cc1ccccc1/C=C1\\SC(=O)N(CC(O)(Cn2nccn2)c2ccc(F)cc2F)C1=O", "strain": "CNCYP51", "result": ">100 µg/mL"}
{"structure": "N=C(N)c1ccc(OCCCCC(=O)O)cc1", "strain": "H99", "result": ">100 µg/mL"}
{"structure": "Cc1nn([C@H](C)[C@](O)(Cn2cncn2)c2ccc(F)cc2F)c2ccc(Cl)cc12", "strain": "ATCC 24065", "result": "0.25 µg/mL"}
{"structure": "CCCCCCCCCCCCCCN1CCc2cc(O)c(O)cc2C1", "result": "100 µg/mL"}
{"structure": "OC(CN1CCCN(CCCCCOc2ccccc2)C1)(Cn1cncn1)c1ccc(F)cc1F", "result": "32.97 µM"}
{"structure": "N=C(N)c1ccc(OCCCCCO)cc1", "strain": "H99", "result": ">100 µg/mL"}
{"structure": "O=C1S/C(=C\\c2cccs2)C(=O)N1CC(O)(Cn1nccn1)c1ccc(F)cc1F", "result": "8.92 µg/mL"}
{"structure": "Cc1ccc(NC(=O)CN(C)CC(O)(Cn2cncn2)c2ccc(F)cc2F)cc1", "result": "4 µg/mL"}
{"structure": "C=C(CCCCCNC1NCCC2c3ccc(OC)cc3CCN12)C(C)C", "strain": "NFI3102", "result": "2 µg/mL"}
{"structure": "OC(CN=C1CCN(CCCCOc2ccccc2)CC1)(Cn1cncn1)c1ccc(F)cc1F", "result": ">132 µM"}
{"structure": "CCCCN(Cc1cn(Cc2cccc(C#N)c2)nn1)CC(O)(Cn1cncn1)c1ccc(F)cc1F", "result": "64 µg/mL"}
{"structure": "CC(C)N=C(N)c1ccc2nc(-c3ccc(CCc4ccc(-c5nc6ccc(C(N)=NC(C)C)cc6[nH]5)cc4)cc3)[nH]c2c1", "strain": "135.95", "result": "≤0.09 µg/mL"}
{"structure": "O=C1S/C(=C\\c2ccc(Cl)cc2Cl)C(=O)N1CC(O)(Cn1nccn1)c1ccc(F)cc1F", "strain": "CNCYP51", "result": "0.12 µg/mL"}
{"structure": "CN=[N+]([O-])CC[C@H](N)C(=O)O", "strain": "422", "result": ">200 µg/mL"}
{"structure": "O=C1CSC(=O)N1CC(O)(Cn1nccn1)c1ccc(F)cc1F", "strain": "CNCYP51", "result": "11.29 µg/mL"}
{"structure": "CCCCCCCCOc1ccc(NC(=O)C(COC(C)(C)C)NC(=O)[C@]2(O)C[C@@H](O)C(O)[C@H](OC(=O)/C=C/c3ccc(O)c(O)c3)C2)cc1", "strain": "ATCC 32045", "result": "1 µg/mL"}
{"structure": "OC(CN1CCN(c2ccc(OCc3ccncc3)cc2)CC1)(Cn1cncn1)c1ccc(F)cc1F", "strain": "S18012", "result": "0.5 µg/mL"}
{"structure": "CCCCN(Cc1cn(Cc2ccc([N+](=O)[O-])cc2)nn1)CC(O)(Cn1cncn1)c1ccc(F)cc1F", "result": "64 µg/mL"}
{"structure": "CCCCCCCCNC1NCCC2c3ccc(OC)cc3CCN12", "strain": "NFI3102", "result": "2 µg/mL"}
{"structure": "O=C1S/C(=C\\c2ccccn2)C(=O)N1CC(O)(Cn1nccn1)c1ccc(F)cc1F", "strain": "CNCYP51", "result": "9.02 µg/mL"}
{"structure": "CN(CCCOc1ccccc1)CC(O)(Cn1cncn1)c1ccc(F)cc1F", "result": "0.62 µM"}
{"structure": "CN(CC(=O)Nc1cccc([N+](=O)[O-])c1)CC(O)(Cn1cncn1)c1ccc(F)cc1F", "result": "64 µg/mL"}
{"structure": "OC(CN1CCCN(CCCCOc2ccccc2)C1)(Cn1cncn1)c1ccc(F)cc1F", "result": "33.95 µM"}
{"structure": "C[C@@H](n1ncc2cc(N(C)C)ccc21)[C@](O)(Cn1cncn1)c1ccc(F)cc1F", "strain": "ATCC 24065", "result": "0.25 µg/mL"}
{"structure": "N=C(N)c1ccc(NCCCNc2ccc(C(=N)N)cc2[N+](=O)[O-])c([N+](=O)[O-])c1", "strain": "119.95", "result": "1.56 µg/mL"}
{"structure": "CN(CCCCOc1ccccc1)CC(O)(Cn1cncn1)c1ccc(F)cc1F", "result": "0.15 µM"}

Repeating the final 2 entries:

| structure | strain | result |
|---|---|---|
| N=C(N)c1ccc(NCCCNc2ccc(C(=N)N)cc2[N+](=O)[O-])c([N+](=O)[O-])c1 | 119.95 | 1.56 µg/mL |
| CN(CCCCOc1ccccc1)CC(O)(Cn1cncn1)c1ccc(F)cc1F |  | 0.15 µM |